Measurements reported in PMC8608293, “A single amino acid polymorphism in a conserved effector of the multihost blast fungus pathogen expands host-target binding spectrum” (2021).

Target: sHMA94 (recombinant, E. coli, tag cleaved, for ITC) (Setaria italica)
Assay: ITC

Substance: APikL2F (recombinant, E. coli) (natural protein)
- Kd: 146 nM
